Experimental data reported in patent publication US20210292393A1 (published 2021).

Columns and labels:
[1] = target: SARS-CoV-2 full-length spike protein on pseudotyped lentivirus (SARS-CoV-2); assay: cell-based or functional assay
[2] = target: T1, SARS-CoV-2 spike protein (nCoV-S Spike Protein Trimer, NIH) (SARS-CoV-2); assay: HT-SPR (Carterra LSA), mAb on chip, SARS-CoV-2 spike protein titrated, 37 C
T1 construct: also called S protein

[3] = target: T1, SARS-CoV-2 spike protein (nCoV-S Spike …); assay: HT-SPR (Carterra LSA), mAb on chip, SARS-CoV-2 spike protein titrated, 25 C
SARS-CoV-2 spike protein = target: T2, SARS-CoV-2 spike protein (SARS-CoV-2); assay: HT-SPR, Carterra LSA; mAb coupled to chip, antigen injected; 1:1 fit
T2 construct: also called SARS-CoV-2 S protein; antigen of interest

B1: anti-SARS-CoV-2 antibody 540 (antibody, V domains shown)
VH: EVQLVESGGGLVKPGGSLRLSCAASGFTFSNAWMSWVRQAPGKGLEWVGHIKSKTDGGTTDYAAPVKGRFTISRDDSKNTLYLQMNSLKTEDTAVYYCTREPYYFDYWGQGTLVTVSS
VL: [gap - about 100 residues]GQGTKLEIKR
IC50 (pseudoneutralization) [1]: > 50 µg/mL | IC80 (pseudoneutralization) [1]: > 50 µg/mL

B2: antibody 540 (antibody, V domains shown)
VH: EVQLVESGGGLVKPGGSLRLSCAASGFTFSNAWMSWVRQAPGKGLEWVGHIKSKTDGGTTDYAAPVKGRFTISRDDSKNTLYLQMNSLKTEDTAVYYCTREPYYFDYWGQGTLVTVSS
VL: [gap - about 100 residues]GQGTKLEIKR
notes: also called mAb 540
Kd [2]: 905 pM | Kd [3]: 122 pM

B3: antibody 540 (antibody, V domains shown)
VH: EVQLVESGGGLVKPGGSLRLSCAASGFTFSNAWMSWVRQAPGKGLEWVGHIKSKTDGGTTDYAAPVKGRFTISRDDSKNTLYLQMNSLKTEDTAVYYCTREPYYFDYWGQGTLVTVSS
VL: [gap - about 100 residues]GQGTKLEIKR
notes: also called mAb 540
kon (SARS-CoV-2 spike protein): 92500 M⁻¹ s⁻¹
